Results on one molecule are retold here after patent publication US12569478B2 (priority 2021, dated 2026).

For test [1], the system named is rats administered fentanyl. The settings on record: Compound A 0.5, 1, 10, 50 mg/kg 12-15 minutes after start of fentanyl infusion, each dose vs preceding lower dose, p<0.001; cited from earlier work.
In test [2] the test system is African green monkeys exposed to carfentanil and methamphetamine. Put plainly: Carfentanil and methamphetamine intoxication in African green monkeys (Example 3). The settings on record: Compound A 100 mg/kg or 200 mg/kg and naloxone; paper example.

Consider `C[C@]12N3Cc4c(OCCCS(=O)(=O)O)ccc(OCCCS(=O)(=O)O)c4CN1C(=O)N1CN4C(=O)N5CN6C(=O)N7CN8C(=O)N9Cc%10c(OCCCS(=O)(=O)O)ccc(OCCCS(=O)(=O)O)c%10CN%10C(=O)N(CN%11C(=O)N(CN%12C(=O)N(CN(C3=O)[C@]12C)[C@@H]4[C@H]%125)[C@@H]6[C@H]%117)[C@]8(C)[C@@]9%10C`, for which the “minute ventilation (percent from pre-fentanyl baseline)” value in test [1] is “significant improvement in minute ventilation”. Further, the “attenuation of carfentanil/methamphetamine induced respiratory depression” value in test [2] was “may be sufficient”.
